From US5981167A, “Surface plasmon resonance based enzymatic assay” (priority 1998, dated 1999)

Assays:
[1] = target: T1, CMV protease, A143V/V209A (Human herpesvirus 5 strain AD169, UniProt P16753, A143V); assay: Effect of dithiothreitol on CMV protease activity; type: biochemical
[2] = target: T1, CMV protease, A143V/V209A; conditions: 2 hours
[3] = target: purified double mutant form of CMV protease, A143V/V209A (Human herpesvirus 5 strain AD169, UniProt P16753, A143V); type: biochemical; conditions: 22° C.; read-out: apparent affinity (km)
[4] = target: maturation site peptide […] (CMV)
[5] = target: Serine analog (Biotin)-R--G--V--V--N--A--S--S--R--L--A-(pY)
[6] = target: Native Peptide (Biotin)-R--G--V--V--N--A--S--C--R--L--A-(pY)
[7] = target: T1, CMV protease, A143V/V209A; type: biochemical; parameters: recombinant autolysis-site double mutant; conditions: read-out: IC-50, competition with biotinylated native substrate
[8] = target: CMV protease, soluble A143V/V209A (human CMV) (UniProt P16753)

O[C@H](CS)[C@H](O)CS (racemic) [DTT, Dithiothreitol]
effect of addition to inactive protease purified in the absence of DTT ([1]; 20-hour assay): complete reactivation | lowering of percent cleavage of the native substrate ([1]; DTT reduced from 800 μM to 4 μM, 2 hours): 12%

(Biotin)-R--G--V--V--N--A--S--C--R--L--A-(pY) [native substrate]
cleavage of the substrate ([2]; 0.06 μM protease): 50%

(Biotin)-R--G--V--V--N--A--S--S--R--L--A-(pY) [serine analog]
cleavage of the substrate ([2]; 0.5 μM protease): 50%

AGVVNASSRLA [CMV maturation site peptide, P2' serine analog]
Km [3]: 900 µM

CMV protease, soluble A143V (from UniProt P16753) (enzyme)
Km [4]: 962 µM

CMV protease, soluble A143V/V209A (from UniProt P16753) (enzyme)
Km [4]: 893 µM | cleavage of the substrate (BIAcore-based CMV assay) [5]: 50% | cleavage of the substrate (BIAcore-based CMV assay) [6]: 50%

GVVNASCRLA [native peptide, native maturation site peptide of CMV protease]
IC50 [7]: ~1000 µM

native maturation site peptide (…)
IC-50 of inhibition of the enzyme activity by competition with the biotinylated native substrate [8]: 1 mM

Read-outs that look alike come from different tables or passages of the source.
